Anti-infective test results gathered from many reports (values: NIAID ChemDB through PubChem).

Inhibition is in % at the dose shown (toxicity tests: loss of growth or viability). MIC50, MIC90 and the like: level of inhibition, or share of isolates inhibited. MIC bound: limit read from a one-dose screen. An empty or dashed field is not shown. Neighbouring rows are from separate reports.

SMILES | target | cells | measure | species | kind | strain or isolate | tested at | read by | value
Clc1ccc(CCNCCNCCc2ccccc2Cl)c(Cl)c1 |  |  | MIC | Mycobacterium tuberculosis | culture |  |  |  | 50 µM
Fc1ccc(N2CCCCC2)c(NC(=S)c2ccncc2)c1 | TRKC |  | inhibition |  | host protein |  | 10 µM | kinase activity | 13.7%
Nc1cccc2c1oc1c(N)cccc12 |  |  | MIC | Mycobacterium tuberculosis | culture | H37Rv |  |  | >100 µg/mL
O=C1c2c(O)ccc(O)c2C(=O)c2c(NCCNCCO)ccc(NCCNCCO)c21 |  |  | MIC bound | Mycobacterium tuberculosis | culture | H37Rv |  |  | >6.25 µg/mL
C[C@@H](NCCNC[C@@H]1CC[C@H]2C[C@@H]1C2(C)C)C1CCCCC1 |  |  | MIC | Mycobacterium tuberculosis | culture |  |  |  | 50 µM
O=C1N(c2nncs2)CCN1[N+](=O)[O-] |  |  | MIC | Mycobacterium tuberculosis | culture | TAC-R |  |  | 6.3 µg/mL
OCc1cccs1 |  |  | MIC | Mycobacterium tuberculosis | culture | H37Rv |  |  | 50 µg/mL
CCCCCCCCCCCNCCNC1CCCC(C)C1C |  |  | MIC | Mycobacterium tuberculosis | culture |  |  |  | 25 µM
Cc1nc(-c2ccccc2O)[nH]c1C |  |  | MIC | Mycobacterium tuberculosis | culture | H37Rv |  |  | >100 µg/mL
O=C1N(CCCl)CCN1c1ccccc1 |  |  | inhibition | Mycobacterium tuberculosis | culture | H37Rv | 12.5 µg/mL | BACTEC | 0%
CCCCCC(C)NCCNc1cccc2ncccc12 |  |  | MIC | Mycobacterium tuberculosis | culture |  |  |  | 6.25 µM
COc1cc([C@@H]2OC[C@H]3[C@@H]2CO[C@H]3c2cc(OC)c3c(c2)OCO3)cc(OC)c1OC |  |  | MIC bound | Mycobacterium tuberculosis | culture | H37Rv |  | BACTEC | >12.5 µg/mL
CCCCCN(CCCCC)Cc1cc(Nc2ccnc3cc(Cl)ccc23)ccc1O.Cl |  |  | MIC | Mycobacterium tuberculosis | culture | H37Rv |  |  | >100 µg/mL
COc1ccc(CNCCNCCc2ccccc2F)c(OC)c1 |  |  | MIC | Mycobacterium tuberculosis | culture |  |  |  | 25 µM
CCC(C)(NC(N)=O)NC(N)=O |  |  | MIC | Mycobacterium tuberculosis | culture | H37Rv |  |  | >100 µg/mL
COc1ccc(CNCCN[C@@H](C)C2CCCCC2)cc1OC |  |  | MIC | Mycobacterium tuberculosis | culture |  |  |  | 50 µM
Cl.Oc1ccc(Nc2ccnc3cc(Cl)ccc23)cc1CN1CCCCC1 |  |  | MIC | Mycobacterium tuberculosis | culture | H37Rv |  |  | >100 µg/mL
COc1ccc2nc3c(C)n(C)ccc-3c2c1 |  |  | inhibition | Mycobacterium tuberculosis | culture | H37Rv | 12.5 µg/mL | BACTEC | 38%
O=C(CC(=O)c1ccccc1)Nc1cccc(NC(=O)CC(=O)c2ccccc2)c1 |  |  | MIC | Mycobacterium tuberculosis | culture | H37Rv |  |  | 50 µg/mL
Cc1cc(NCCN(C(C)C)C(C)C)nc(/N=C(\N)Nc2ccc(Cl)c(C(F)(F)F)c2)n1 |  |  | inhibition | Mycobacterium tuberculosis | culture | H37Rv | 12.5 µg/mL | BACTEC | 97%
Cl.NCCOC(c1ccccc1)c1ccccc1 |  |  | MIC | Mycobacterium tuberculosis | culture | H37Rv |  |  | 100 µg/mL
CCCCCCCCCCCNCCNCc1ccco1 |  |  | MIC | Mycobacterium tuberculosis | culture |  |  |  | 50 µM
C/C(=N/NC(=S)N1CCC(C)CC1)c1nccnc1C |  | VERO | MIC | Mycobacterium tuberculosis | culture | H37Rv |  |  | 1.6 µg/mL
CC(O)CNc1ccccc1 |  |  | MIC | Mycobacterium tuberculosis | culture | H37Rv |  |  | >100 µg/mL
CCOC(=O)C(=O)Nc1c(N(CC)CC)n2ccccc2nc1=O |  |  | MIC bound | Mycobacterium tuberculosis | culture | H37Rv |  | resazurin | >6.25 µg/mL
Cc1ccc(C(=O)C(=O)N(C)c2ccccc2)cc1 |  |  | MIC | Mycobacterium tuberculosis | culture | H37Rv |  |  | 100 µg/mL
C=CCc1ccc(OC)c(OC)c1 |  |  | MIC90 | Candida albicans | culture | ATCC 10261 |  | turbidity | 345 µg/mL
O=C(N/N=C/C(F)(F)F)c1ccncc1 |  | VERO | MIC | Mycobacterium tuberculosis | culture | H37Rv |  |  | 0.109 µg/mL
Nc1cccc(O)c1Br |  |  | MIC | Mycobacterium tuberculosis | culture | H37Rv |  |  | >100 µg/mL
CCOCCOCCN1CNc2nc(N)[nH]c(=O)c2C1 |  |  | MIC bound | Mycobacterium tuberculosis | culture | H37Rv |  | BACTEC | >12.5 µg/mL
COc1ccc(CNCCNCC(c2ccccc2)c2ccccc2)c(OC)c1 |  |  | MIC | Mycobacterium tuberculosis | culture |  |  |  | 25 µM
CCN(CC)CCNc1ccc(CO)c2oc3ccc(OS(=O)(=O)c4ccc(C)cc4)cc3c(=O)c12 |  |  | MIC | Mycobacterium tuberculosis | culture | RMP-R |  |  | 6.3 µg/mL
c1cc(NCCN[C@H]2C[C@@H]3CC[C@H]2C3)c2cccnc2c1 |  |  | MIC | Mycobacterium tuberculosis | culture |  |  |  | >50 µM

Repeating the final 2 entries:

SMILES,target,cells,measure,species,kind,strain or isolate,tested at,read by,value
CCN(CC)CCNc1ccc(CO)c2oc3ccc(OS(=O)(=O)c4ccc(C)cc4)cc3c(=O)c12,,,MIC,Mycobacterium tuberculosis,culture,RMP-R,,,6.3 µg/mL
c1cc(NCCN[C@H]2C[C@@H]3CC[C@H]2C3)c2cccnc2c1,,,MIC,Mycobacterium tuberculosis,culture,,,,>50 µM